A mixed list of measured activities; the numbers were collected in NIAID ChemDB.

Common to all: growth or infection tests; agent: HIV-1; measure: EC50

Rows are shuffled and stem from different studies. ECn is the concentration giving n% inhibition of infection, replication or growth. a–b is a range or a potency band. Blank or dashed fields: not listed here.

smiles	strain	read by	cells	mutations	result
COc1nc(N)nc2c1ncn2[C@H]1C=C[C@@H](CO)C1	IIIB	cytopathic effect / XTT	MT-2		6.85 µM
C[C@H]1[C@H](C)Oc2c3c(c4c(-c5ccccc5)cc(=O)oc4c2[C@H]1O)OC(C)(C)C=C3		cytopathic effect / MTT	CEM + CEM-SS		0.62 µM
CCCCCCCCn1c(=O)cnn([C@H]2C[C@H](O)[C@@H](CO)S2)c1=O	IIIB	syncytia	CEM		>20 µM
CCN(CC)CCN=C(c1ccccc1)N1CCN(C(=O)C(=O)c2c[nH]c3c(Br)ccc(F)c23)CC1	Luciferase reporter virus	luciferase	HeLa(CD4+) + HeLa		<0.5 µM
CCCCCCCCCCCCCCCCCC(=O)Nc1cc(S(=O)(=O)O)cc2cc(S(=O)(=O)O)cc(O)c12			CEM + CEM-SS		130 µM
CCCOc1nc(N)nc2c1ncn2[C@@H]1C=C[C@H](CO)C1	IIIB	cytopathic effect / XTT	MT-2		2.49 µM
COC(=O)[C@H](C)NP(=O)(OC[C@@H]1C=C[C@H](n2cc(C)c(=O)[nH]c2=O)O1)Oc1ccc(F)cc1	IIIB	p24	PBMC		0.001 µM
COc1cc2ccnc3c2c(c1OCCCCCCOc1c(OC)cc2ccnc4c2c1N(C)C=C4)N(C)C=C3			PBMC		0.54 µM
Cc1cc(C)c(Oc2nc(Nc3ccc(C#N)cc3)nc3sccc23)c(C)c1	L1001-K103N	luciferase	HeLa		0.01–0.1 µM
O=C1c2ccccc2C(=O)c2c(OS(=O)(=O)c3ccccc3)ccc(Cl)c21	IIIB	syncytia	C8166		35.13 µg/mL
COc1ncc(OC)c2c(C(=O)C(=O)N3CCN(C(=NC#N)c4ccccc4)CC3)c[nH]c12	Luciferase reporter virus	luciferase	HeLa(CD4+) + HeLa		<0.5 µM
O=C(O)CCC(CCC(=O)O)(CCC(=O)O)NC(=O)CCC(CCC(=O)NC(CCC(=O)O)(CCC(=O)O)CCC(=O)O)(CCC(=O)NC(CCC(=O)O)(CCC(=O)O)CCC(=O)O)NC(=O)CCCOC(=O)C1(C(=O)OCCCC(=O)NC(CCC(=O)NC(CCC(=O)O)(CCC(=O)O)CCC(=O)O)(CCC(=O)NC(CCC(=O)O)(CCC(=O)O)CCC(=O)O)CCC(=O)NC(CCC(=O)O)(CCC(=O)O)CCC(=O)O)C2c3cc4c5c6c3-c3c(cc7c8c3C6C3c6c-5c(cc5ccc9cc(c-8c3c9c65)C7)C4)C21	LAI	cytopathic effect	PBMC		0.22 µM
CS(=O)(=O)/N=C(\c1ccccc1)N1CCN(C(=O)C(=O)c2c[nH]c3cccc(F)c23)CC1	Luciferase reporter virus	luciferase	HeLa(CD4+) + HeLa		<0.5 µM
COC(=O)C(C)NP(=O)(OC[C@@H]1C=C[C@H](n2cc(C)c(=O)[nH]c2=O)O1)Oc1cccc(N(C)C)c1	IIIB	p24	PBMC		0.025 µM
C[C@@H]1CN(C(=O)c2ccccc2)CCN1C(=O)C(=O)c1c[nH]c2c(NC(=O)NCCCCCCNC(=O)NCCOCCOCCN)cccc12		luciferase / reporter gene	HeLa		<1 µM
N=C(c1ccccc1)N1CCN(C(=O)C(=O)c2c[nH]c3cccc(F)c23)CC1	Luciferase reporter virus	luciferase	HeLa(CD4+) + HeLa		<0.5 µM
COCCOc1nc(N)nc2c1ncn2[C@H]1C=C[C@@H](CO)C1	IIIB	cytopathic effect / XTT	MT-2		20 µM
Nc1nc(Nc2ccc(Cl)cc2)nn1S(=O)(=O)c1cnn(-c2ccc(C(F)(F)F)cn2)c1	IIIB	luciferase / RT activity	TZM-bl		0.01446 µM
N#CN=C(c1ccccc1)N1CCN(C(=O)C(=O)c2c[nH]c3cc(F)cc(F)c23)CC1	Luciferase reporter virus	luciferase	HeLa(CD4+) + HeLa		<0.5 µM
Cc1cn([C@H]2C[C@H](N=[N+]=[N-])[C@@H](COP(=O)(O)C(N)=O)O2)c(=O)[nH]c1=O	GKV-4046	MTT / p24	MT-4		0.1 µM
CCCCCCCCCCCN1C=Cc2cc(OC)c(O)c3c2c1cc[n+]3CCCCCCCCCCC			PBMC		2.8 µM
O=C(CCCCCCCCCCC(=O)Nc1ccc2cc(S(=O)(=O)O)cc(S(=O)(=O)O)c2c1)Nc1ccc2cc(S(=O)(=O)O)cc(S(=O)(=O)O)c2c1			CEM + CEM-SS		38 µM
CO[C@H]1C[C@@H]2CC[C@@H](C)[C@@](O)(O2)C(=O)C(=O)N2CCCC[C@H]2C(=O)O[C@H]([C@H](C)C[C@@H]2CC[C@@H](O)[C@H](OC)C2)CC(=O)[C@H](C)/C=C(\C)[C@@H](O)[C@@H](OC)C(=O)[C@H](C)C[C@H](C)/C=C/C=C/C=C/1C	IIIB X4	p24	PBMC		>0.001 µM
Cc1cn([C@H]2CC[C@@H](COCP(=O)([O-])[O-])O2)c(=O)[nH]c1=O	IIIB	cytopathic effect	MT-4		>500 µM
COc1ccc2[nH]c(=O)c(CN(Cc3cccnc3)S(=O)(=O)c3cccc4nsnc34)cc2c1	IIIB	p24 / ELISA	PBMC		0.0096 µM
CCCCCCCCCCCCCCCCCC(=O)Nc1ccc2cc(S(=O)(=O)O)cc(S(=O)(=O)O)c2c1			CEM + CEM-SS		66 µM
Cc1cc(C)cc(Cc2c3c([nH]c(=O)c2C#N)OCCC3)c1	LAI	RT activity	CEM + CEM-SS		>100 µM
Cn1c2ccccc2c(=O)c2c(O)c(O)ccc21	IIIB	p24 / ELISA	OM-10.1		>7.8 µg/mL
O=c1cnn([C@H]2C[C@H](O)[C@@H](CO)S2)c(=O)[nH]1	IIIB	syncytia	CEM		>100 µM
Nc1ccn([C@@H]2O[C@H](CO)[C@@H](O)[C@H]2C(F)(F)F)c(=O)n1					>100 µM
O=C(O)c1cc(C(c2ccc(O)c(C(=O)O)c2)c2ccc(O)c(C(=O)O)c2)ccc1O	IIIB	syncytia	MOLT-4/HUT-78		2 µg/mL
O=C(C(=O)N1CCN(C(=NC2CCCCC2)c2ccccc2)CC1)c1c[nH]c2c(-n3ccnn3)ncc(F)c12	Luciferase reporter virus	luciferase	HeLa(CD4+) + HeLa		<0.5 µM
Cc1cn([C@H]2C[C@H](N)[C@@H](COCP(=O)(O)O)O2)c(=O)[nH]c1=O	IIIB	cytopathic effect	MT-4		500 µM
COC(=O)C(C)NP(=O)(OC[C@@H]1C=C[C@H](n2cc(C)c(=O)[nH]c2=O)O1)Oc1ccc(OC)cc1	IIIB	p24	PBMC		0.004 µM
N#Cc1ccc(S(=O)(=O)n2nc(Nc3ccc(C#N)c(Cl)c3)nc2N)c(Cl)c1	IIIB	luciferase / RT activity	TZM-bl	Y181C/K103N	>1 µM
CCCCCCCCCCCCCCCC[n+]1ccc2cc(OC)c(OC)c3c2c1C=CN3			PBMC		<1 µM
O=C(O)c1cccc(Cc2cccc(C(=O)O)c2O)c1O	IIIB	syncytia	MOLT-4/HUT-78		30 µg/mL
C=CCOc1nc(N)nc2c1ncn2[C@H]1C=C[C@@H](CO)C1	IIIB	cytopathic effect / XTT	MT-2		5.42 µM
CCCCCCCCCCCCCCCC(=O)Nc1ccc2cc(S(=O)(=O)O)cc(S(=O)(=O)O)c2c1			CEM + CEM-SS		50 µM
COC(=O)[C@H](C)NP(=O)(OC[C@@H]1C=C[C@H](n2cc(C)c(=O)[nH]c2=O)O1)Oc1ccc(Cl)cc1	IIIB	p24	PBMC		0.001 µM
CCCc1cc(=O)oc2c1=C1OC(C)(C)C=CC1C1O[C@H](C)[C@H](C)C(=O)C=21		cytopathic effect / MTT	CEM + CEM-SS		2.82 µM
O=S(=O)(c1cccc2cnccc12)N1CCNCC1	IIIB	p24 / ELISA	MOLT-4/IIIB + MOLT-4		>13.7 µg/mL
CCc1c(OC)nc(OC)c(C#N)c1Cc1cc(C)cc(C)c1	LAI	RT activity	CEM + CEM-SS		>100 µM
CCNC(=NCCCN(C)C)Nc1cccc2c(C(=O)C(=O)N3CCN(C(=O)c4ccccc4)C[C@H]3C)c[nH]c12		luciferase / reporter gene	HeLa		<1 µM
C[n+]1c(-c2cccc(C(=O)NCCCCCC(=O)NCCC(=O)N[C@@H](CCCN=C(N)N)C(=O)NCCCNCCCNCC(=O)O)c2)c2cc(N)ccc2c2ccc(N)cc21.O=C(O)C(F)(F)F.O=C(O)C(F)(F)F.O=C(O)C(F)(F)F.[Cl-]	LAI	RT activity	CEM + CEM-SS		>10 µM
CC(C)NC(=O)/N=C(\c1ccccc1)N1CCN(C(=O)C(=O)c2c[nH]c3cccc(F)c23)CC1	Luciferase reporter virus	luciferase	HeLa(CD4+) + HeLa		>0.5 µM
C=C(C)[C@@H]1CC[C@]2(C(=O)NCCCCCCCC(=O)N[C@@H](CC(C)C)[C@@H](O)CC(=O)O)CC[C@]3(C)[C@H](CC[C@@H]4[C@@]5(C)CC[C@H](O)C(C)(C)[C@@H]5CC[C@]43C)[C@@H]12	2750 M	cytopathic effect / MTT	MT-4		0.14 µM
Cc1cc(C)c(Nc2nc(Nc3ccc(C#N)cc3)nc3c(C)csc23)c(C)c1		luciferase	HeLa		<0.1 µM
CN1C(=O)[C@@H](c2cc(Cl)c(O)c(Cl)c2)NC(=O)[C@@H]2NC(=O)[C@H](c3cc(Cl)c(O)c(Cl)c3)NC(=O)[C@@H](NC(=O)C(=O)c3cc(Cl)c(O)c(Cl)c3)Cc3c[nH]c4cc(ccc34)-c3cc2cc(c3O)Oc2ccc(cc2)C[C@H]1C(=O)N[C@@H](C(=O)O)c1ccc(O)cc1	IIIB	cytopathic effect / MTT	MT-4		2.2 µg/mL
N[C@H]1C(=O)N[C@@H]2Cc3ccc(c(Cl)c3)Oc3cc4cc(c3O)Oc3ccc(cc3Cl)[C@@H](O)[C@@H]3NC(=O)[C@H](NC(=O)[C@@H]4NC(=O)[C@@H](NC2=O)c2cc(O)cc(c2)Oc2cc1ccc2O)c1ccc(O)c(c1)-c1c(O)cc(O)cc1[C@@H](C(=O)C1NCCC2CCCCC21)NC3=O		syncytia	CEM		1.8 µM
CO[C@@]12C[C@]3(C)CCC[C@H](C)[C@@]3(O)CC1=C(C)C(=O)O2	IIIB	MTT	MT-4		0.044 µg/mL
O=C(Oc1ccc(Cl)c2c1C(=O)c1ccccc1C2=O)c1ccccc1	IIIB	syncytia	C8166		>200 µg/mL
Cc1cc(C)c(Nc2nc(Nc3ccc(C#N)cc3)nc3ccsc23)c(C)c1	L1001-K103N	luciferase	HeLa		>0.1 µM
O=S(=O)(O)c1cc(Cl)cc(Cc2cc(Cl)cc(S(=O)(=O)O)c2O)c1O	IIIB	cytopathic effect / MTT	MT-4		>100 µg/mL
N#CC(=C1CCN(C(=O)C(=O)c2c[nH]c3c(NC(=O)Nc4ccc(C(=O)O)cc4)cccc23)CC1)c1ccccc1		luciferase / reporter gene	HeLa		<1 µM
O=C(O)c1cc(-n2cccc2)ccc1Cl	SF162 R5 CLADE B	luciferase / cell fusion	PBMC/5.25M7		93.06 µM
CCCc1cc(=O)oc2c3c(c4c(c12)OC(C)(C)C=C4)O[C@@H](C)[C@H](C)[C@@H]3O		cytopathic effect / MTT	CEM + CEM-SS		0.18 µM
Cc1cc(C#N)cc(C)c1Nc1nc(Nc2ccc(C#N)cc2)nc2c(C)csc12		luciferase	HeLa		<0.01 µM
CCc1c(O)[nH]c(=O)c(C#N)c1Cc1cc(C)cc(C)c1	LAI	RT activity	CEM + CEM-SS		>100 µM
CCCCCCCCCCCCNCC(O)C(O)C(OC1OC(CO)C(O)C(O)C1O)C(O)CO			CEM + CEM-SS		1 µM
Cn1c2ccccc2c(=O)c2c(O)cccc21	IIIB	MTT	MOLT-4		>14.8 µg/mL
CCO[C@@H]1Cc2cc(C(F)(F)F)ccc2C1N1CCN(C2(C)CCN(C(=O)c3c(C)ncnc3C)CC2)C[C@@H]1C	WPS-2	p24	PBMC		0.0012 µM
Nc1cnn([C@H]2C[C@H](O)[C@@H](CO)S2)c(=O)n1	IIIB	syncytia	CEM		>100 µM
N#CCc1ccc2cccc(S(=O)(=O)n3nc(Nc4ccc(C#N)c(Cl)c4)nc3N)c2c1	IIIB	luciferase / RT activity	TZM-bl		0.00529 µM
CC(=O)Oc1ccc(Cl)c2c1C(=O)c1ccccc1C2=O	IIIB	syncytia	C8166		9.81 µg/mL
Cc1cn([C@@H]2O[C@H](CO)[C@@H](O)[C@H]2C(F)(F)F)c(=O)[nH]c1=O					>100 µM
CCCCCCn1c(=O)cnn([C@H]2C[C@H](O)[C@@H](CO)S2)c1=O	IIIB	syncytia	CEM		>100 µM
CCCCCCCCCCCCCCCCCCOC[C@H](COP(=O)(O)C(=O)O)OC	LAI	p24	MT-2		280 µM
C[C@@H]1CN(C(=O)c2ccccc2)CCN1C(=O)C(=O)c1c[nH]c2c(NC(=O)CN(C)C)cccc12		luciferase / reporter gene	HeLa		<1 µM
O=C(O)C1=CC(=C(c2ccc(O)c(C(=O)O)c2)c2ccc(O)c(C(=O)O)c2)C=C(Cc2ccc(O)c(C(=O)O)c2)C1=O	IIIB	syncytia	MOLT-4/HUT-78		8 µg/mL

Again, the opening 8 rows:

smiles,strain,read by,cells,mutations,result
COc1nc(N)nc2c1ncn2[C@H]1C=C[C@@H](CO)C1,IIIB,cytopathic effect / XTT,MT-2,,6.85 µM
C[C@H]1[C@H](C)Oc2c3c(c4c(-c5ccccc5)cc(=O)oc4c2[C@H]1O)OC(C)(C)C=C3,,cytopathic effect / MTT,CEM + CEM-SS,,0.62 µM
CCCCCCCCn1c(=O)cnn([C@H]2C[C@H](O)[C@@H](CO)S2)c1=O,IIIB,syncytia,CEM,,>20 µM
CCN(CC)CCN=C(c1ccccc1)N1CCN(C(=O)C(=O)c2c[nH]c3c(Br)ccc(F)c23)CC1,Luciferase reporter virus,luciferase,HeLa(CD4+) + HeLa,,<0.5 µM
CCCCCCCCCCCCCCCCCC(=O)Nc1cc(S(=O)(=O)O)cc2cc(S(=O)(=O)O)cc(O)c12,,,CEM + CEM-SS,,130 µM
CCCOc1nc(N)nc2c1ncn2[C@@H]1C=C[C@H](CO)C1,IIIB,cytopathic effect / XTT,MT-2,,2.49 µM
COC(=O)[C@H](C)NP(=O)(OC[C@@H]1C=C[C@H](n2cc(C)c(=O)[nH]c2=O)O1)Oc1ccc(F)cc1,IIIB,p24,PBMC,,0.001 µM
COc1cc2ccnc3c2c(c1OCCCCCCOc1c(OC)cc2ccnc4c2c1N(C)C=C4)N(C)C=C3,,,PBMC,,0.54 µM